A value given as a limit tells only on which side of the number the result lay.

In the first experiment the test system is HIV-1 NL4-3 K103N-Y181C strain. Nature of the experiment: Antiviral assay: inhibition of virus-induced cytotoxicity in MT4 cells. To be noted: Human immunodeficiency virus 1, NL43, MT4, 120 h, read-out: HIV-1 K103N-Y181C MT4 EC50.
`Cc1cn([C@H]2C[C@H](N=[N+]=[N-])[C@@H](CO)O2)c(=O)[nH]c1=O` [AZT, azidothymidine]: the concentration giving a half-maximal response (EC50) (in general, the midpoint of the concentration-response curve) came to 0.0031 ± 0.0007 µM.
In the case of `O=C(N/N=C/c1ccccc1O)c1cc(O)c(O)c(O)c1` [Compound 13, N’-(2-hydroxy-benzylidene)-3,4,5-trihydroxybenzoylhydrazone], the EC50 was determined as 12.4 ± 0.8 µM.
For the compound `O=C(N/N=C/c1cc(O)c(O)cc1O)c1cc(O)c(O)c(O)c1` [Compound 21], the EC50 worked out at 8.7 ± 0.1 µM.
The same measure, in the same setting: with `O=C1Nc2ccc(Cl)cc2[C@@](C#CC2CC2)(C(F)(F)F)O1` [EFV, efavirenz] the figure was > 1.58 µM.
Still for that read-out and setting: with `Cc1nnc(C(=O)NC(C)(C)c2nc(C(=O)NCc3ccc(F)cc3)c(O)c(=O)n2C)o1` [RAL, raltegravir] the figure was 0.004 ± 0.001 µM.

Still in this experiment, the particulars now being: read-out: HIV-1 K103N-Y181C MT4 EC50; HIV-1 NL4-3 K103N-Y181C, MT4 cells, MTT, 5 days post infection; mean and SD of three experiments.
For the compound `CCOC(=O)C(=O)CC(=O)/C=C/c1cccn1Cc1ccccc1Cl` [RDS1759], the EC50 was determined as 4.6 ± 1.1 µM.
